Pooled drug test results. Numbers come from NIAID ChemDB, via PubChem.

Shared fields: cytotoxicity tests; cell line: H9; read-out: CC50

Lines come from different laboratories, so protocols vary. An empty or dashed field is not shown. CCn is the concentration with n% toxicity to the cells.

smiles | method | value
CCCC1=[N+](Cc2ccccc2)CCc2cc(OCc3ccccc3)c(OCc3ccccc3)cc21 |  | 0.197 µg/mL
CC(C)(O)/C=C/C(=O)[C@](C)(O)C1[C@H](O)C(=O)[C@@]2(C)[C@@H]3CC=C4[C@@H](C[C@H](O)[C@@H](O)C4(C)C)[C@]3(C)C(=O)C[C@]12C |  | 5.1 µg/mL
COc1c2c(nc3ccccc13)O[C@@H](C(C)(C)O)C2 | cell count | >100 µg/mL
CC(C)C1NCCc2cc(O)c(O)cc21 |  | 22.8 µg/mL
O=C(/C=C/c1ccc(O)c2c1[C@H](C(=O)O[C@H](Cc1ccc(O)c(O)c1)C(=O)O)[C@@H](c1ccc(O)c(O)c1)O2)O[C@H](Cc1ccc(O)c(O)c1)C(=O)O |  | >220 µM
CC[C@@H](C(=O)[C@@H](C)[C@@H](O)[C@H](C)[C@@H]1O[C@@H]([C@@H](CC)C(=O)O)CC[C@@H]1C)[C@H]1O[C@@]2(C=C[C@@H](O)[C@@]3(CC[C@@](C)([C@H]4CC[C@](O)(CC)[C@H](C)O4)O3)O2)[C@H](C)C[C@@H]1C |  | 6.98 µg/mL
c1cc(CN2CCCNCCNCCCNCC2)ccc1CN1CCCNCCNCCCNCC1 |  | >10 µM
CC1(C)Oc2ccc3c(-c4ccccc4)cc(=S)oc3c2[C@@H](OC(=O)C23CCC(C)(C(=O)O2)C3(C)C)[C@H]1OC(=O)C12CCC(C)(C(=O)O1)C2(C)C |  | >140 µM
O=c1c(O[C@@H]2O[C@H](CO)[C@@H](O)[C@H](O)[C@H]2O)c(-c2ccc(O)cc2)oc2cc(O)cc(O)c12 |  | >200 µg/mL
Cc1cn([C@H]2C[C@H](N=[N+]=[N-])[C@@H](CO)O2)c(=O)[nH]c1=O.O=C(O)P(=O)(O)O |  | >800 µM
COc1cc2c(c3ccccc3n2C)c2c(NCCCO)nccc12 |  | 0.15 µg/mL
CCCCCCCCCCCCCCCCCCCCCCOCC(C)(COCCCCCCCCCCCCCCCCCCCCCC)CO[C@]1(C(=O)O)C[C@H](OS(=O)(=O)O)[C@@H](NC(C)=O)[C@H]([C@H](OS(=O)(=O)O)[C@@H](COS(=O)(=O)O)OS(=O)(=O)O)O1 |  | >200 µM
CC1(C)Oc2ccc3ccc(=O)oc3c2[C@@H](OC(=O)C23CCC(C)(C(=O)O2)C3(C)C)[C@H]1OC(=O)C12CCC(C)(C(=O)O1)C2(C)C |  | 35 µM
CCc1nccc2cc(O)c(O)cc12 |  | 2.08 µg/mL
Nc1ncn([C@@H]2O[C@H](CO)[C@@H](O)[C@H]2O)c(=O)n1 | MTT | 101.7 µM
COC1CCC(OC2CC(C3(C)CCC4(CC(O)C(C)C(C(C)/C=C(\C)C(=O)C(C)CC(C)C(=O)O)O4)O3)OC3(OC(C4OC(O)(CO)C(C)CC4C)CC3C)C2C)OC1C |  | 78.4 µg/mL
Cc1cn([C@H]2C[C@H](N=[N+]=[N-])[C@@H](CO)O2)c(=O)[nH]c1=O |  | 500 µg/mL
CCNC(=O)[C@@H](NC(=O)Cc1ccccc1)[C@@H]1N[C@@H](C(=O)NCCNC(=O)[C@@H]2N[C@@H]([C@H](NC(=O)Cc3ccccc3)C(=O)NCC)SC2(C)C)C(C)(C)S1 |  | >128 µM
Cc1cn([C@H]2C[C@H](N=[N+]=[N-])[C@@H](CO)O2)c(=O)[nH]c1=O |  | >300 µg/mL
COc1cc(OC)c2ccc(=O)oc2c1OC | cell count | >100 µg/mL
COc1ccc(Cc2c3ccc(OC)c(OC)c3cc[n+]2C)cc1OC |  | >100 µg/mL
CCCCCCCCCCCCCCOC[C@H](CO[C@]1(C(=O)O)C[C@H](OS(=O)(=O)O)[C@@H](NC(C)=O)[C@H]([C@H](OS(=O)(=O)O)[C@@H](COS(=O)(=O)O)OS(=O)(=O)O)O1)OCCCCCCCCCCCCCC | MTT | >100 µM
COc1cc2c(c3ccccc3n2C)c2c(NCCN3CCCCC3)nccc12 |  | 0.24 µg/mL
COC(=O)C1C[C@]2(C)C3CC[C@@]4(C)C(CC[C@@H]4OC(C)=O)C3CC[C@]23O[C@@H]3C1=O |  | 4.34 µM
Cc1cn([C@H]2C[C@H](N=[N+]=[N-])[C@@H](CO)O2)c(=O)[nH]c1=O |  | >60 µM
C[C@]12CCCCC13OC3C(=O)C(C(N)=O)C2 |  | 26.78 µM
CC1NCCc2cc(O)c(O)cc21 |  | 21.2 µg/mL
Cc1ccnc2c1NC(=O)c1cccnc1N2C1CC1 |  | >290 µM
CCCCCCCCCCCCCCCCCCOC[C@H](CO[C@]1(C(=O)O)C[C@H](OS(=O)(=O)O)[C@@H](NC(C)=O)[C@H]([C@H](OS(=O)(=O)O)[C@@H](COS(=O)(=O)O)OS(=O)(=O)O)O1)OC | MTT | >200 µM
CC(C)=CCC/C(C)=C/C[N@@+]12CCc3cc(O)c(O)cc3[C@H]1Cc1cc(O)c(O)cc1C2 |  | >25 µg/mL
CC1(C)Oc2ccc3ccc(=O)oc3c2[C@@H](OC(=O)C23CCC(C)(C(=O)O2)C3(C)C)[C@H]1OC(=O)C12CCC(C)(C(=O)O1)C2(C)C |  | 35 µM
O=C1OC(C2OC(=O)c3cc(O)c(O)c(O)c3-c3c(O)c(O)c4oc(=O)c5c(c(O)c(O)c6oc(=O)c3c4c65)-c3c(cc(O)c(O)c3O)C(=O)OCC2O)C2OC(=O)c3c(c(O)c(O)c(O)c3C2O)-c2c1cc(O)c(O)c2O |  | <20 µg/mL
Cc1c2cc(OCc3ccccc3)c(OCc3ccccc3)cc2cc[n+]1C |  | 0.171 µg/mL
CCCCCCCCCCCCCCOC[C@H](CS[C@]1(C(=O)O)C[C@H](OS(=O)(=O)O)[C@@H](NC(C)=O)[C@H]([C@H](OS(=O)(=O)O)[C@@H](COS(=O)(=O)O)OS(=O)(=O)O)O1)OCCCCCCCCCCCCCC | MTT | ~200 µM
COc1ccc2c(c1OC)C(CC(C)=O)N(C)c1c-2ccc2cc3c(cc12)OCO3 | cell count | 2.32 µg/mL
Oc1cc2c(cc1O)C[NH+]1CCc3cc(O)c(O)cc3C1C2 |  | 18.13 µg/mL
O=c1c(O)cc([C@H]2Oc3cc(O)cc(O)c3C[C@H]2O)cc2c([C@H]3Oc4cc(O)cc(O)c4C[C@H]3O)cc(O)c(O)c12 |  | 48 µg/mL
C=C(C)OC(=O)N1c2cc(Cl)ccc2NC(=S)C1(C)C |  | >290 µM
C[C@]12CCC3C(CC[C@@]45O[C@@H]4C(=O)C(S(C)(=O)=O)C[C@]35C)C1CC[C@@H]2O |  | 5.46 µM
O=c1cc(-c2ccc(O)cc2)oc2cc(O)cc(O)c12 |  | 35 µg/mL
c1ccc([C@H]2CN3CCSC3=N2)cc1 |  | >>0.1 µM
CC(C)=CCC/C(C)=C/C[N+]1(C/C=C(\C)CCC=C(C)C)CCc2cc(O)c(O)cc2[C@H]1Cc1ccc(O)c(O)c1 |  | 18.02 µg/mL
COc1ccc(-c2cc(=O)c3c(O)cc(O[C@@H]4O[C@H](CO)[C@H](O)[C@H](O)[C@H]4O)cc3o2)cc1 |  | 37 µg/mL
Oc1cc(O)c2c(c1)O[C@H](c1cc(O)c(O)c(O)c1)[C@H](O)[C@H]2c1c(O)cc(O)c2c1O[C@H](c1cc(O)c(O)c(O)c1)[C@H](O)C2 |  | 18 µg/mL
O=c1[nH]cnc2c1ncn2[C@H]1CC[C@@H](CO)O1 | MTT | >100 µg/mL
Nc1cccc2c(=O)cc(-c3ccccc3)sc12 |  | 15 µg/mL
C[C@@]12CCCC[C@]13O[C@@H]3C(=O)C(C#N)C2 |  | 33 µM
COC1CCC(OC2CC(C3OC(O)(CO)C(C)CC3C)OC2C2(C)CCC(C3(C)CCC4(CC(O)C(C)C(C(C)C5OC(O)(CC(=O)O)C(C)C(OC6CCC(OC)C(C)O6)C5OC)O4)O3)O2)OC1C |  | >100 µg/mL
O=C(O[C@@H]1Cc2c(cc(O)c(Cc3c(O)cc4c(c3O)C[C@@H](OC(=O)c3cc(O)c(O)c(O)c3)[C@@H](c3cc(O)c(O)c(O)c3)O4)c2O)OC1c1cc(O)c(O)c(O)c1)c1cc(O)c(O)c(O)c1 |  | 35 µg/mL
CC1(C)Oc2ccc3ccc(=S)oc3c2[C@@H](OC(=O)C23CCC(C)(C(=O)O2)C3(C)C)[C@H]1OC(=O)C12CCC(C)(C(=O)O1)C2(C)C |  | >156 µM
CC1(C)Oc2ccc3ccc(=O)oc3c2[C@@H](OC(=O)C23CCC(C)(C(=O)O2)C3(C)C)[C@H]1OC(=O)C12CCC(C)(C(=O)O1)C2(C)C | cell count | >16.1 µM
Cc1nccc2cc(O)c(O)cc12 |  | 2.22 µg/mL
C[n+]1ccc2cc(O)c(O)cc2c1Cc1ccc(O)c(O)c1 |  | >25 µg/mL
COc1cc2c(c3cnccc13)c1ccccc1n2C |  | 2.7 µg/mL
CC1NCCc2cc(O)c(O)cc21 | MTT | 25 µg/mL
CC(C)=CCC/C(C)=C/C[N+]1(C/C=C(\C)CCC=C(C)C)CCc2cc(O)c(O)cc2[C@H]1C |  | 10.68 µg/mL
C[C@]12CCC3C(CC[C@@]45O[C@@H]4C(=O)C(S(=O)(=O)c4ccccc4)C[C@]35C)C1CC[C@@H]2O |  | 4.16 µM
C#C[C@@]1(CO)C=C[C@H](n2cc(C)c(=O)[nH]c2=O)O1 |  | >50 µM
COC(=O)[C@H]1[C@@H]2C[C@@H](O[C@@H]3O[C@H](C)[C@@H](O)[C@H](N)[C@@H]3O)/C=C/C=C/C=C/C=C/C=C/C=C/C=C/[C@H](C)[C@@H](O)[C@H](C)[C@H](C)OC(=O)C[C@H](O)C[C@H](O)[C@@H](O)CC[C@H](O)C[C@H](O)C[C@](O)(C[C@@H]1O)O2 |  | 75 µg/mL
O=c1c(O)c(-c2ccc(O)cc2)oc2cc(O)cc(O)c12 |  | 50 µg/mL
CC(C)(O)/C=C/C(=O)[C@](C)(O)C1[C@H](O)C[C@@]2(C)[C@@H]3CC=C4[C@@H](C[C@H](O)[C@@H](O)C4(C)C)[C@]3(C)C(=O)C[C@]12C |  | 0.16 µg/mL
C=C(c1ccc(OC)c(OC)c1)c1nccc2cc(OC)c(OC)cc12 |  | 1.85 µg/mL
CCc1cc(NCc2nc3c(C)ccc(C)c3o2)c(=O)[nH]c1C |  | >60 µM
Nc1ccn([C@H]2CO[C@@H](CO)S2)c(=O)n1 |  | >500 µM
COc1ccc2c(OC)c3ccoc3nc2c1OC | cell count | 22.5 µg/mL
CC(C)=CCC/C(C)=C/C[N+]1(C/C=C(\C)CCC=C(C)C)CCc2cc(O)c(O)cc2[C@H]1C | MTT | 10.68 µg/mL
O=C(O[C@@H]1Cc2c(cc(O)c(Cc3c(O)cc(O)c4c3O[C@H](c3cc(O)c(O)c(O)c3)[C@H](OC(=O)c3cc(O)c(O)c(O)c3)C4)c2O)O[C@@H]1c1cc(O)c(O)c(O)c1)c1cc(O)c(O)c(O)c1 |  | 40 µg/mL
CC(=O)O[C@H]1CCC2C3CC[C@@]45O[C@@H]4C(=O)C(C(N)=O)C[C@]5(C)C3CC[C@@]21C |  | 3.84 µM
Cc1cn([C@H]2C[C@H](N=[N+]=[N-])[C@@H](CO)O2)c(=O)[nH]c1=O |  | >1000 µM
O=c1cc(-c2ccccc2)sc2ccc(O)cc12 |  | 40 µg/mL
COC1CCC(OC2CC(C)(C3CCC(C4OC(C)(O)C(C)CC4C)O3)OC2C2(C)CC(C)C3(OC(CC4OC(O)(C(C)C(=O)O)C(C)C(OC)C4OC)CC(OC)C3C)O2)OC1C |  | 49.1 µg/mL
O=c1cc(-c2ccccc2)sc2cc(O)c(O)cc12 |  | 1.8 µg/mL
O=C1O[C@H]([C@@H](O)CO)C2(O)Oc3cc(O)c4c(c3[C@@]12O)O[C@H](c1cc(O)c(O)c(O)c1)[C@H](O)C4 |  | 38 µg/mL
Nc1nc(=O)n([C@@H]2CO[C@H](CO)S2)cc1F |  | >500 µM
Cc1cn([C@H]2C[C@H](N=[N+]=[N-])[C@@H](CO)O2)c(=O)[nH]c1=O |  | 2000 µM